T1: hERG, Q12809
T1 chain: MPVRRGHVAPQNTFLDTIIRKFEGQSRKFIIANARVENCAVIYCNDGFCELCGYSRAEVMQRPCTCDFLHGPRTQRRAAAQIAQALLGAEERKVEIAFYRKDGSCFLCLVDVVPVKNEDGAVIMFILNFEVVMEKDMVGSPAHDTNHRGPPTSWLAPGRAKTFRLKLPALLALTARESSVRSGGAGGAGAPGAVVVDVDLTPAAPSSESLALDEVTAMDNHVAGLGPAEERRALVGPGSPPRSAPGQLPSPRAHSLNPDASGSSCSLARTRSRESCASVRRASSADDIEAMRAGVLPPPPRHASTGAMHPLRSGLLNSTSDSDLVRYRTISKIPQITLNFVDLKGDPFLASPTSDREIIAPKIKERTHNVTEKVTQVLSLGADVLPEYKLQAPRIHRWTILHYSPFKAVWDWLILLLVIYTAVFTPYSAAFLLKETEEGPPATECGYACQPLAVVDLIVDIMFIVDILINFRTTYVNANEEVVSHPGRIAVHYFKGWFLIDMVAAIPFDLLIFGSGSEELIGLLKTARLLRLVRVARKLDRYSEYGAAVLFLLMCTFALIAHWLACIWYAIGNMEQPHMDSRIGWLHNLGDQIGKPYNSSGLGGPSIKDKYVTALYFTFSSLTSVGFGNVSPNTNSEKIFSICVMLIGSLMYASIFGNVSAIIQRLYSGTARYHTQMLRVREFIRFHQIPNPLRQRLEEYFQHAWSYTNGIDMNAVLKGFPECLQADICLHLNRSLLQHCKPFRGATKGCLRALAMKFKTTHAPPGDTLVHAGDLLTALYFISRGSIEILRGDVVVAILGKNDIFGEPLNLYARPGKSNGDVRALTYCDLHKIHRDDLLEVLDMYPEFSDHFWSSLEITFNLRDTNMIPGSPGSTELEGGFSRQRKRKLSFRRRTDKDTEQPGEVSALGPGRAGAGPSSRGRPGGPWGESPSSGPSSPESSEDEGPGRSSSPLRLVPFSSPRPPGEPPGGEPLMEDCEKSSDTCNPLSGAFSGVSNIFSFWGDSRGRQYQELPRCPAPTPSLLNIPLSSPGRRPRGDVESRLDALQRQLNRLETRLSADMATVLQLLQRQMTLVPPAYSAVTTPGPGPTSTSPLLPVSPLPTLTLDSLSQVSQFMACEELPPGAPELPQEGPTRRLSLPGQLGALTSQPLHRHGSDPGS

B1: SEQ ID NO: 15 (peptide)
peptide: GSAVCNLKRCQLSCRSLGLLGKCIGDKCECVKHG
modifications: not checked
B2: SEQ ID NO: 12 (peptide)
peptide: GSNFKVEGACSKPCRKYCIDKGARNGKCINGRCHCYY
modifications: not checked
B3: SEQ ID NO: 2 (peptide)
peptide: GSEVIRCSGSKQCYGPCKQQTGCTNSKCMNKVCKCYGCG
modifications: not checked
B4: SEQ ID NO: 32 (peptide)
peptide: GSQDKCKKVYENYPVSKCQLANQCNYDCKLDKHARSGECFYDEKRNLQCICDYCEY
modifications: not checked

target: 5HT3a; assay: cell-based or functional assay

B1 was tested, and the % activity at 0.2 µM was 86%.

B1 gave a % activity at 20 µM of 74%.

target: Cav2.1; assay: cell-based or functional assay

First: B2
Second: B1
The % activity at 0.2 µM of the first is higher: 109% for the first, 106% for the second.

With B1 the % activity at 20 µM was 86%.

target: Cav2.2; assay: cell-based or functional assay

In the case of B1, the % activity at 0.2 µM is reported as 105%.

B1 was tested, and the % activity at 20 µM was 106%.

target: GABA; assay: cell-based or functional assay

B1 was tested, and the % activity at 0.2 µM was 122%.

B1 gave a % activity at 20 µM of 97%.

target: Kir2.1; assay: cell-based or functional assay

Compared with B3, B4 is lower in % activity at 20 µM: 89% for the first, 79% for the second.

With B1 the % activity at 20 µM was 88%.

B1 showed a % activity at 0.2 µM of 107%.

target: Kv1.1; assay: cell-based or functional assay

First: B3
Second: B4
The % activity at 0.2 µM of the first is higher: 114% for the first, 76% for the second.

Binder B1 has a % activity at 0.2 µM of 69%.

Going from B3 to B4, the % activity at 20 µM rises from 68% to 114%.

B1 gave a % activity at 20 µM of 72%.

target: Kv1.2; assay: cell-based or functional assay

Going from B3 to B1, the % activity at 0.2 µM rises from 34% to 77%.

First: B3
Second: B2
The % activity at 20 µM of the first is lower: 39% for the first, 41% for the second.

B1 showed a % activity at 20 µM of 76%.

target: Kv1.3; assay: cell-based or functional assay

First: B3
Second: B1
The % activity at 0.2 µM of the first is lower: 8% for the first, 86% for the second.

Going from B3 to B2, the % activity at 20 µM rises from 1% to 23%.

Binder B1 has a % activity at 20 µM of 90%.

target: Kv2.1; assay: cell-based or functional assay

Going from B3 to B1, the % activity at 0.2 µM rises from 80% to 91%.

Compared with B3, B1 is higher in % activity at 20 µM: 87% for the first, 88% for the second.

target: NR2A; assay: cell-based or functional assay

Work on B1 yielded a % activity at 0.2 µM of 97%.

B1 was tested, and the % activity at 20 µM was 76%.

target: NR2B; assay: cell-based or functional assay

First: B3
Second: B4
The % activity at 0.2 µM of the first is higher: 118% for the first, 76% for the second.

Going from B2 to B1, the % activity at 0.2 µM falls from 122% to 103%.

Compared with B3, B2 is higher in % activity at 20 µM: 72% for the first, 83% for the second.

Binder B1 has a % activity at 20 µM of 88%.

target: Nav1.5; assay: cell-based or functional assay

Compared with B4, B1 is lower in % activity at 20 µM (TP1): 90% for the first, 78% for the second.

Compared with B4, B1 is lower in % activity at 20 µM (TP2): 90% for the first, 79% for the second.

Going from B2 to B1, the % activity at 0.2 µM (TP1) falls from 98% to 90%.

Going from B2 to B1, the % activity at 0.2 µM (TP2) falls from 95% to 91%.

target: Nav1.7; assay: cell-based or functional assay

First: B3
Second: B2
The % activity at 0.2 µM (TP1) of the first is higher: 89% for the first, 61% for the second.

Binder B1 has a % activity at 0.2 µM (TP1) of 91%.

Compared with B3, B2 is lower in % activity at 0.2 µM (TP2): 74% for the first, 66% for the second.

B1 was tested, and the % activity at 0.2 µM (TP2) was 97%.

First: B2
Second: B1
The % activity at 20 µM (TP1) of the first is lower: 74% for the first, 75% for the second.

Going from B2 to B1, the % activity at 20 µM (TP2) falls from 63% to 58%.

target: TRPA1; assay: cell-based or functional assay

First: B4
Second: B2
The % activity at 0.2 µM of the first is higher: 130% for the first, 129% for the second.

B1 was tested, and the % activity at 0.2 µM was 114%.

Going from B2 to B1, the % activity at 20 µM falls from 80% to 76%.

target: TRPV1; assay: cell-based or functional assay

Compared with B3, B4 is higher in % activity at 20 µM: 81% for the first, 84% for the second.

B1 gave a % activity at 20 µM of 99%.

B1 showed a % activity at 0.2 µM of 124%.

Target: T1, hERG, Q12809
Assay: cell-based or functional assay

First: B4
Second: B1
The % activity at 0.2 µM of the first is higher: 90% for the first, 79% for the second.

Compared with B4, B2 is higher in % activity at 20 µM: 65% for the first, 81% for the second.

Work on B1 yielded a % activity at 20 µM of 67%.

target: α3β4 nicotinic receptor; assay: cell-based or functional assay

First: B4
Second: B1
The % activity at 0.2 µM of the first is higher: 100% for the first, 91% for the second.

Binder B1 has a % activity at 20 µM of 86%.

target: α4β2 nicotinic receptor; assay: cell-based or functional assay

First: B3
Second: B1
The % activity at 20 µM of the first is lower: 87% for the first, 95% for the second.

First: B4
Second: B1
The % activity at 0.2 µM of the first is higher: 81% for the first, 71% for the second.
